A mixed list of measured activities; the numbers were collected in NIAID ChemDB.

Shared fields: cytotoxicity tests; cell line: HepG2; endpoint: CC50

Rows are shuffled and stem from different studies. CCn: concentration that lowers growth or viability of the cells by n%. An empty or dashed field is not shown.

compound | method | conditions | value
CC1C(=O)N(O)c2ncc(Br)cc2C1O | MTS | 7 d | 46.1 µM
CN(C(=O)Oc1ccc(Cl)cc1C(=O)Nc1ccc(F)cc1)c1ccccc1 | MTT |  | 512 µM
CCOc1ccc2nc(C)cc(Nc3ccc4c(c3)OCCO4)c2c1 | cell count / luminescence |  | >32.5 µM
C[C@H]1[C@H](O)[C@@H](C)/C=C/C=C/C=C/C=C/C=C/C=C/C=C/[C@H](O[C@@H]2O[C@H](C)[C@@H](O)[C@H](N)[C@@H]2O)C[C@@H]2O[C@](O)(C[C@@H](O)C[C@@H](O)CC[C@H](O)[C@@H](O)C[C@@H](O)CC(=O)O[C@H]1C)C[C@H](O)[C@H]2C(=O)O | MTT |  | 2.06 µg/mL
CC1CCN(CCCCOc2ccc(C(=O)c3ccccc3)cc2)CC1 | cell count / luminescence |  | >26.8 µM
CN(C)C(=S)Oc1ccc(Cl)cc1C(=O)Nc1ccc(F)cc1 | MTT |  | 116.8 µM
CC(NCC(O)COc1ccccc1C(C)(C)C)c1ccccc1 | cell count / luminescence |  | >27.3 µM
CC/C=C\C[C@H]1C(=O)CC[C@@H]1CC(=O)O | ATP |  | >26 µM
CN(C)C(=O)Oc1ccc(Cl)cc1C(=O)Nc1ccc(Cl)cc1 | MTT |  | 188.7 µM
CC[C@H](/C=C/[C@@H](C)[C@H]1CCC2C3CC=C4C[C@@H](O)CC[C@]4(C)[C@@]3(C)CC[C@@]21C)C(C)C | ATP |  | >26 µM
CN(C(=O)Oc1ccc(Cl)cc1C(=O)Nc1ccc(C(F)(F)F)cc1)c1ccccc1 | MTT |  | >100 µM
CC(/C=C/C=C(\C)CC(=O)O)=C\C=C\C=C(C)\C=C\C(C)=C(/C)C(=O)O | ATP |  | >26 µM
CC(C)(c1ccccc1)c1ccc(OCCCn2ccnc2)cc1 | cell count / luminescence |  | >22.7 µM
O=c1oc2c(O)c(O)cc3c(=O)oc4c(O)c(O)cc1c4c23 | ATP |  | >26 µM
Cc1cccc2c(Nc3ccc(S(N)(=O)=O)cc3)c3ccc([N+](=O)[O-])cc3nc12 | cell count / luminescence |  | >24.8 µM

A second listing of 2 rows from above:

compound,method,conditions,value
CC/C=C\C[C@H]1C(=O)CC[C@@H]1CC(=O)O,ATP,,>26 µM
C[C@H]1[C@H](O)[C@@H](C)/C=C/C=C/C=C/C=C/C=C/C=C/C=C/[C@H](O[C@@H]2O[C@H](C)[C@@H](O)[C@H](N)[C@@H]2O)C[C@@H]2O[C@](O)(C[C@@H](O)C[C@@H](O)CC[C@H](O)[C@@H](O)C[C@@H](O)CC(=O)O[C@H]1C)C[C@H](O)[C@H]2C(=O)O,MTT,,2.06 µg/mL